Pooled drug test results. Numbers come from NIAID ChemDB, via PubChem.

Shared fields: whole-cell or culture tests; organism: Mycobacterium fortuitum; read-out: MIC

a–b is a range or a potency band. Blank or dashed fields: not listed here. Neighbouring rows are from separate reports.

compound,strain or isolate,read by,result
N#Cc1cnc(C(N)=O)c(Nc2ccccc2)n1,1021,-,>100 µg/mL
CSCCC/C=N/NC(=O)c1cnc2cccc(C(F)(F)F)c2c1NC(CSc1ccccc1)CC(=O)N(C)C,ATCC 19542,resazurin,>100 µg/mL
CO[C@@]1(NC(=O)C(C(=O)O)c2ccc(O)cc2)C(=O)N2C(C(=O)O)=C(CSc3nnnn3C)CO[C@@H]21,1047,-,>100 µg/mL
CN(C)C(=O)CC(CSc1ccccc1)Nc1c(C(=O)N/N=C/c2cc(F)ccc2O)cnc2cccc(C(F)(F)F)c12,ATCC 19542,resazurin,>100 µg/mL
CC(C)(C)Sc1ccnc(C(N)=S)c1,1021,-,2000 µM
CO[C@@]1(NC(=O)CSCC#N)C(=O)N2C(C(=O)O)=C(CSc3nnnn3C)CS[C@@H]21,1260,-,3.12 µg/mL
CN(C)C(=O)CC(CSc1ccccc1)Nc1c(C(=O)N/N=C/c2ccc(Br)s2)cnc2cc(F)ccc12,ATCC 19542,resazurin,>100 µg/mL
CC(C)OC1Oc2ccc([N+](=O)[O-])cc2C(=O)/C1=C\Nc1ccc(C(=O)O)c(O)c1,1021,-,>100 µg/mL
CO[C@@]1(NC(=O)CCCC(N)C(=O)O)C(=O)N2C(C(=O)O)=C(COC(C)=O)CSC21,1048,-,>100 µg/mL
Oc1ccc(CCN=C=S)cc1,-,visual reading,16 µg/mL
O=C(O)c1ccc(Nc2nnc(-c3ccncc3)s2)cc1O,ATCC 6841,broth dilution,>128 µg/mL
Cc1cccc(Nc2nc(C#N)cnc2C(N)=O)c1,1021,-,>100 µg/mL
N/C(=N\N=C\c1ccccn1)c1ccccn1,NCTC 10394,-,>50 µg/mL
COc1ccc(/C=N/NC(=O)c2cnc3cc(F)ccc3c2NC(CSc2ccccc2)CC(=O)N(C)C)c(F)c1,ATCC 19542,resazurin,>100 µg/mL
CCC(C)Sc1ccnc(C(N)=S)c1,1021,-,500 µM
N/C(=N\N=C\Cc1ccc[nH]1)c1ccccn1,NCTC 10394,-,>50 µg/mL
N#Cc1cnc(C(N)=O)c(Nc2ccc(Cl)cc2)n1,1021,-,>100 µg/mL
CCCSc1ccnc(C(N)=S)c1,1021,-,250 µM
CCC(C)(C)c1ccc(/C=N/N=C(\N)c2ccc3ccccc3n2)cc1,NCTC 10394,-,8–16 µg/mL
CCOC1Oc2ccc(C)cc2C(=O)/C1=C\Nc1ccc(C(=O)O)c(O)c1,1021,-,>100 µg/mL
N/C(=N\N=C\c1cccc(OCc2ccccc2)c1)c1ccccn1,NCTC 10394,-,32–64 µg/mL
CN(C)C(=O)CC(CSc1ccccc1)Nc1c(C(=O)N/N=C/c2ccc(F)cc2)cnc2cccc(C(F)(F)F)c12,ATCC 19542,resazurin,10 µg/mL
CCOC1Oc2ccccc2C(=O)/C1=C\Nc1cccc(C(=O)O)c1O,1021,-,>100 µg/mL
CC(C)c1ccc(/C=N/N=C(\N)c2ccccn2)cc1,NCTC 10394,-,8–16 µg/mL
N#Cc1cnc(C(N)=O)c(Nc2ccc(O)cc2)n1,1021,-,>100 µg/mL
CCOC1Oc2ccccc2C(=O)/C1=C\Nc1ccc(O)c(C(=O)O)c1,1021,-,>100 µg/mL
CC(C)(C)Sc1ccccc1/C=N/N=C(\N)c1ccccn1,NCTC 10394,-,>128 µg/mL
COc1ccc(/C=N/NC(=O)c2cnc3cccc(C(F)(F)F)c3c2NC(CSc2ccccc2)CC(=O)N(C)C)cc1,ATCC 19542,resazurin,>100 µg/mL
N#Cc1cnc(C(N)=O)c(Nc2cccc(O)c2)n1,1021,-,>100 µg/mL
Cc1ccnc(NS(=O)(=O)c2ccc(N3C(=O)CC(=O)N(c4ccc(C(=O)O)c(O)c4)C3=S)cc2)n1,ATCC 6841,broth dilution,64 µg/mL
CCCCCCCCCCCCSc1ccnc(C(N)=S)c1,1021,-,2000 µM
O=C(O)c1ccc(-n2c(-c3ccncc3)n[nH]c2=S)cc1O,ATCC 6841,broth dilution,>128 µg/mL
CO[C@@]1(NC(=O)CCCC(N)C(=O)O)C(=O)N2C(C(=O)O)=C(COC(N)=O)CSC21,1030-8,-,>100 µg/mL
CCC(C)(C)c1ccc(/C=N/N=C(\N)c2ccccn2)cc1,-,-,8–10 µg/mL
CCCCCCCSc1ccnc(C(N)=S)c1,1021,-,125 µM
CN(C)C(=O)CC(CSc1ccccc1)Nc1c(C(=O)N/N=C/c2cccnc2)cnc2cc(F)ccc12,ATCC 19542,resazurin,10 µg/mL

Again, the opening 3 rows:

compound,strain or isolate,read by,result
N#Cc1cnc(C(N)=O)c(Nc2ccccc2)n1,1021,-,>100 µg/mL
CSCCC/C=N/NC(=O)c1cnc2cccc(C(F)(F)F)c2c1NC(CSc1ccccc1)CC(=O)N(C)C,ATCC 19542,resazurin,>100 µg/mL
CO[C@@]1(NC(=O)C(C(=O)O)c2ccc(O)cc2)C(=O)N2C(C(=O)O)=C(CSc3nnnn3C)CO[C@@H]21,1047,-,>100 µg/mL